The source of these data is patent publication US4158052A, “Oil-free adjuvant compositions containing N-acetyl-muramyl-L-alanyl-D-isoglutamine” (priority 1975, dated 1979).

This data set deals with Hartley guinea pigs. The conditions noted are these: guinea pig, in vivo.

Take `CC(=O)N[C@@H]1[C@@H](O[C@H](C)C(=O)N[C@@H](C)C(=O)N[C@H](CCC(=O)O)C(N)=O)[C@H](O)[C@@H](CO)O[C@H]1O` [Mur-NAc-L-Ala-D-Glu-α-NH2, 2-(2-acetamido-2-deoxy-3-O-D-glucopyranosyl)-D-propionyl-L-alanyl-D-α-isoglutamine]: the “Skin test, diameter of reaction: Purified tuberculin 50 IU” value was 0,0,0,0,0,0.
